{"source": "patent US9617289B2", "about": "“RSV antiviral compounds” (JANSSEN R&D IRELAND, priority 2012, dated 2017)", "note": "Some results come without the dose or concentration used.", "data": [{"tested_on": "HeLa cells", "assay": "Cytotoxicity in HeLa cells (ATP content, ATPlite kit); SI calculated as CC50/EC50", "assay_type": "cell-based", "details": "SI is calculated as CC50/EC50, three days", "values": [{"smiles": "CC(C)NC(=O)N[C@H]1C[C@]2(C1)C(=O)N(Cc1nc3cc(Cl)ccc3n1CCCC#N)c1ccccc12", "note": "[Compound 143, 1-((1s,3s)-1′-((5-chloro-1-(3-cyanopropyl)-1H-benzo[d]imidazol-2-yl)methyl)-2′-oxospiro[cyclobutane-1,3′-indolin]-3-yl)-3-isopropylurea]", "SI_TOX-HELA_wt": ">30292.8"}, {"smiles": "CC(C)(O)C(=O)N1CC[C@]2(C1)C(=O)N(Cc1nc3cc(Cl)ccc3n1CCCS(C)(=O)=O)c1ccccc12", "note": "[Compound 122, (S)-1-((5-chloro-1-(3-(methylsulfonyl)propyl)-1H-benzo[d]imidazol-2-yl)methyl)-1′-(2-hydroxy-2-methylpropanoyl)spiro[indoline-3,3′-pyrrolidin]-2-one]", "SI_TOX-HELA_wt": ">12032.3"}, {"smiles": "CS(=O)(=O)CCCn1c(CN2C(=O)C3(CCCC3)c3ccncc32)nc2cc(Cl)ccc21", "note": "[Compound 37, 1′-((5-chloro-1-(3-(methylsulfonyl)propyl)-1H-benzo[d]-imidazol-2-yl)methyl)spiro[cyclopentane-1,3′-pyrrolo[2,3-c]pyridin]-2′(1′H)-one]", "SI": ">935083"}, {"smiles": "COC(=O)N[C@H]1C[C@]2(C1)C(=O)N(Cc1nc3cc(Cl)ccc3n1CCCC#N)c1ccccc12", "note": "[Compound 135, methyl ((1s,3s)-1′-((5-chloro-1-(3-cyanopropyl)-1H-benzo[d]imidazol-2-yl)methyl)-2′-oxospiro[cyclobutane-1,3′-indolin]-3-yl)carbamate]", "SI_TOX-HELA_wt": ">1.054e+006"}, {"smiles": "CC(C)(O)C(=O)N1CCC2(CC1)C(=O)N(Cc1nc3cc(Cl)ccc3n1CCCCO)c1cnccc12", "note": "[Compound 164, 1′-{[5-Chloro-1-(4-hydroxybutyl)-1H-benzimidazol-2-yl]methyl}-1-(2-hydroxy-2-methylpropanoyl)spiro[piperidine-4,3′-pyrrolo[2,3-c]pyridin]-2′(1′H)-one]", "SI_TOX-HELA_wt": ">800424"}, {"smiles": "CC(C)OC(=O)N1CCC2(CC1)C(=O)N(Cc1cc3cc(Cl)ccc3n1CCCC#N)c1cnccc12", "note": "[Compound 77, isopropyl 1′-((5-chloro-1-(3-cyanopropyl)-1H-indol-2-yl)-methyl)-2′-oxo-1′,2′-dihydrospiro[piperidine-4,3′-pyrrolo-[2,3-c]pyridine]-1-carboxylate]", "SI": ">96511.7"}, {"smiles": "N#CCCCn1c(CN2C(=O)C3(CN(C(=O)[C@H](O)CO)C3)c3ccccc32)cc2cc(Cl)ccc21", "note": "[Compound 131, (R)-4-(5-chloro-2-((1-(2,3-dihydroxypropanoyl)-2′-oxospiro[azetidine-3,3′-indolin]-1′-yl)methyl)-1H-indol-1-yl)butanenitrile]", "SI_TOX-HELA_wt": 107026}, {"smiles": "CC(=O)N1CCC2(CC1)C(=O)N(Cc1nc3cc(Cl)ccc3n1CCCS(C)(=O)=O)c1ccccc12", "note": "[Compound 32, 1′-acetyl-1-({5-chloro-1-[3-(methylsulfonyl)propyl]-1H-benzimidazol-2-yl}methyl)spiro[indole-3,4′-piperidin]-2(1H)-one]", "SI": ">147839"}, {"smiles": "CC(C)OC(=O)N1CCC2(CC1)C(=O)N(Cc1nc3cc(Cl)ccc3n1CCCC#N)c1cnccc12", "note": "[Compound 99, 1-Methylethyl 1′-{[5-chloro-1-(3-cyanopropyl)-1H-benzimidazol-2-yl]methyl}-2′-oxo-1′,2′-dihydro-1H-spiro[piperidine-4,3′-pyrrolo[2,3-c]pyridine]-1-carboxylate]", "SI_TOX-HELA_wt": 2437755}, {"smiles": "CC1CC2(CC(C)O1)C(=O)N(Cc1nc3cc(Cl)ccc3n1CCCS(C)(=O)=O)c1cnccc12", "note": "(stereo not shown) [Compound 174, 1′-({5-Chloro-1-[3-(methylsulfonyl)propyl]-1H-benzimidazol-2-yl}methyl)-2,6-dimethyl-2,3,5,6-tetrahydrospiro[pyran-4,3′-pyrrolo[2,3-c]pyridin]-2′(1′H)-one]", "SI_TOX-HELA_wt": ">5597.19"}, {"smiles": "CC(C)OC(=O)N1CCC2(CC1)C(=O)N(Cc1nc3cc(Cl)ccc3n1CCCCF)c1cnccc12", "note": "[Compound 179, 1-Methylethyl 1′-{[5-chloro-1-(4-fluorobutyl)-1H-benzimidazol-2-yl]methyl}-2′-oxo-1′,2′-dihydro-1H-spiro[piperidine-4,3′-pyrrool[2,3-c]pyridine]-1-carboxylate]", "SI_TOX-HELA_wt": 1045996}, {"smiles": "CS(=O)(=O)CCCn1c(CN2C(=O)C3(CCN(C(=O)C4CC4)CC3)c3ccncc32)nc2cc(Cl)ccc21", "note": "[Compound 90, 1′-({5-Chloro-1-[3-(methylsulfonyl)propyl]-1H-benzimidazol-2-yl}methyl)-1-(cyclopropylcarbonyl)spiro[piperidine-4,3′-pyrrolo[2,3-c]pyridin]-2′(1′H)-one]", "SI_TOX-HELA_wt": ">2.14e+006"}, {"smiles": "CC(C)(O)C(=O)N1CC2(C1)C(=O)N(Cc1nc3cc(Cl)ccc3n1CCCCF)c1ccccc12", "note": "[Compound 183, 1′-{[5-Chloro-1-(4-fluorobutyl)-1H-benzimidazol-2-yl]methyl}-1-(2-hydroxy-2-methylpropanoyl)spiro[azetidine-3,3′-indol]-2′(1′H)-one]", "SI_TOX-HELA_wt": 1295538}, {"smiles": "N#CCCCn1c(CN2c3ccccc3[C@]3(C[C@@H](NC(=O)OC4CC4)C3)C2=O)nc2cc(Cl)ccc21", "note": "[Compound 126, cyclopropyl ((1r,3r)-1-((5-chloro-1-(3-cyanopropyl)-1H-benzo[d]imidazol-2-yl)methyl)-2′-oxospiro[cyclobutane-1,3′-indolin]-3-yl)carbamate]", "SI_TOX-HELA_wt": 199719}, {"smiles": "N#CCCCn1c(CN2c3ccccc3[C@]3(C[C@@H](O)C3)C2=O)nc2cc(Cl)ccc21", "note": "[Compound 176, 4-(5-chloro-2-(((1r,3r)-3-hydroxy-2′-oxospiro[cyclobutane-1,3′-indolin]-1′-yl)methyl)-1H-benzo[d]imidazol-1-yl)butanenitrile]", "SI_TOX-HELA_wt": ">278272"}, {"smiles": "CNC(=O)O[C@H]1C[C@@]2(C1)C(=O)N(Cc1cc3cc(Cl)ccc3n1CCCCF)c1ccccc12", "note": "[Compound 120, (1r,3r)-1′-((5-chloro-1-(4-fluorobutyl)-1H-indol-2-yl)methyl)-2′-oxospiro[cyclobutane-1,3′-indolin]-3-yl methylcarbamate]", "SI_TOX-HELA_wt": 4817}, {"smiles": "N#CCCCn1c(CN2C(=O)C3(CCN(C(=O)OC4CC4)CC3)c3ccncc32)cc2cc(Cl)ccc21", "note": "[Compound 132, Cyclopropyl 1′-{[5-chloro-1-(3-cyanopropyl)-1H-indol-2-yl]methyl}-2′-oxo-1′,2′-dihydro-1H-spiro[piperidine-4,3′-pyrrolo[2,3-c]pyridine]-1-carboxylate]", "SI_TOX-HELA_wt": 281041}, {"smiles": "CC(C)(C)OC(=O)N1CCC2(CC1)C(=O)N(Cc1nc3cc(Cl)ccc3n1CCCC(F)(F)F)c1ccccc12", "note": "[Compound 48]", "SI": ">43054.6"}, {"smiles": "N#CCCCn1c(CN2c3ccccc3[C@]3(C[C@H](N)C3)C2=O)nc2cc(Cl)ccc21", "note": "[Compound 149, 4-(2-(((1s,3s)-3-amino-2′-oxospiro[cyclobutane-1,3′-indolin]-1′-yl)methyl)-5-chloro-1H-benzo[d]imidazol-1-yl)butanenitrile]", "SI_TOX-HELA_wt": 43155}, {"smiles": "CS(=O)(=O)CCCn1c(CN2c3ccccc3[C@]3(C[C@@H](OC(=O)N4CCOCC4)C3)C2=O)nc2cc(Cl)ccc21", "note": "[Compound 133, (1r,3r)-1′-((5-chloro-1-(3-(methylsulfonyl)propyl)-1H-benzo[d]imidazol-2-yl)methyl)-2′-oxospiro[cyclobutane-1,3′-indolin]-3-yl morpholine-4-carboxylate]", "SI_TOX-HELA_wt": ">714628"}, {"smiles": "CC(C)(C)OC(=O)N1CCC2(CC1)C(=O)N(Cc1nc3cc(Cl)ccc3n1CCCS(C)(=O)=O)c1ccccc12", "note": "[Compound 39, tert-butyl 1-((5-chloro-1-(3-(methylsulfonyl)propyl)-1H-benzo[d]imidazol-2-yl)methyl)-2-oxospiro[indoline-3,4′-piperidine]-1′-carboxylate]", "SI": 59894}, {"smiles": "CS(=O)(=O)CCCn1c(CN2C(=O)C3(CCN(S(=O)(=O)C4CC4)CC3)c3ccncc32)nc2cc(Cl)ccc21", "note": "[Compound 85, 1′-((5-chloro-1-(3-(methylsulfonyl)propyl)-1H-benzo[d]-imidazol-2-yl)methyl)-1-(cyclopropylsulfonyl)spiro-[piperidine-4,3′-pyrrolo[2,3-c]pyridin]-2′(1′H)-one]", "SI": ">655360"}, {"smiles": "COC(=O)N[C@H]1C[C@@]2(C1)C(=O)N(Cc1nc3cc(Cl)ccc3n1CCCC#N)c1ccccc12", "note": "[Compound 136, methyl ((1r,3r)-1′-((5-chloro-1-(3-cyanopropyl)-1H-benzo[d]imidazol-2-yl)methyl)-2′-oxospiro[cyclobutane-1,3′-indolin]-3-yl)carbamate]", "SI_TOX-HELA_wt": 251299}, {"smiles": "O=C1N(Cc2nc3nc(Cl)ccc3n2CCCC(F)(F)F)c2cnccc2C12CCOCC2", "note": "[Compound 67, 1′-((5-chloro-1-(4,4,4-trifluorobutyl)-1H-imidazo[4,5-b]-pyridin-2-yl)methyl)-2,3,5,6-tetrahydrospiro[pyran-4,3′-pyrrolo[2,3-c]pyridin]-2′(1′H)-one]", "SI": 1260115}, {"smiles": "N#CCCCn1c(CN2C(=O)C3(CN(S(=O)(=O)C4CC4)C3)c3ccccc32)nc2cc(Cl)ccc21", "note": "[Compound 180, 4-(5-Chloro-2-{[1-(cyclopropylsulfonyl)-2′-oxospiro[azetidine-3,3′-indol]-1′(2′H)-yl]methyl}-1H-benzimidazol-1-yl)butanenitrile]", "SI_TOX-HELA_wt": ">847754"}, {"smiles": "CC(C)(O)C(=O)N1CC2(C1)C(=O)N(Cc1nc3cc(Cl)ccc3n1CCCCO)c1ccccc12", "note": "[Compound 175, 1′-{[5-Chloro-1-(4-hydroxybutyl)-1H-benzimidazol-2-yl]methyl}-1-(2-hydroxy-2-methylpropanoyl)spiro[azetidine-3,3′-indol]-2′(1′H)-one]", "SI_TOX-HELA_wt": ">1.346e+006"}, {"smiles": "CC(C)(O)C(=O)N1CCC2(CC1)C(=O)N(Cc1nc3cc(Cl)ccc3n1CCCC#N)c1cnccc12", "note": "[Compound 107, 4-(5-Chloro-2-{[1-(2-hydroxy-2-methylpropanoyl)-2′-oxo-spiro[piperidine-4,3′-pyrrolo[2,3-c]pyridin]-1′(2′H)-yl]-methyl}-1H-benzimidazol-1-yl)butanenitrile]", "SI_TOX-HELA_wt": ">1.252e+006"}, {"smiles": "O=C1N(Cc2nc3nc(Cl)ccc3n2CCCC(F)(F)F)c2cnccc2C12CCOCC2", "note": "[Compound 75, 1′-((5-chloro-1-(4,4,4-trifluorobutyl)-1H-imidazo[4,5-b]-pyridin-2-yl)methyl)-2,3,5,6-tetrahydrospiro[pyran-4,3′-pyrrolo[2,3-c]pyridin]-2′(1′H)-one]", "SI": ">21707.5"}]}]}
